# Results published in paper doi:10.1101/2021.09.13.460081.
# Target: Human parainfluenza virus type 3 large protein (L) (human parainfluenza virus type 3 (hPIV3))
# Experiment: cryo-EM structure
substance,measurement,value
"Human parainfluenza virus type 3 large protein (L) (a stretch of the chain, no sequence given) (enzyme)",stoichiometry N,2
